Anti-infective test results gathered from many reports (values: NIAID ChemDB through PubChem).

All rows: toxicity to cultured cells; cells: MT-4; read-out: CC50

Blank or dashed fields: not listed here.

SMILES,method,result
CN1Cn2c(nc(C(=O)NCc3ccc(F)cc3)c(O)c2=O)C1(C)C,microscopy,>1 µM
Cc1ccc(-c2cc(-c3ccc(Cl)cc3)nc(/N=C3\C(=O)N(CN4CCCCC4)c4ccccc43)n2)cc1,MTT,1.1 µM
Cc1cn([C@H]2C=C[C@@H](COP(=O)(Nc3cc(C(=O)Nc4cc(C(=O)Nc5cc(C(=O)NCCC#N)n(C)c5)n(C)c4)n(C)c3)OC3CCCCC3)O2)c(=O)[nH]c1=O,MTT,113 µM
COc1ccc(N(C)C(=O)[C@H](Cc2cc(F)cc(F)c2)NC(=O)CN2CCN(S(=O)(=O)c3cccc(C)c3)CC2=O)cc1,MTT,>204 µM
CCOC(=O)c1[nH]c2ccc(Cl)cc2c1S(=O)(=O)C1CCCC1,microscopy,>10 µM
COc1ccc(N(C)C(=O)[C@H](Cc2cc(F)cc(F)c2)NC(=O)CN2CCN(S(=O)(=O)c3ccc(F)cc3)CC2=O)cc1,MTT,>202 µM
C=C(C)[C@@H]1CC[C@]2(COC(=O)c3cccnc3)CC[C@]3(C)[C@H](CC[C@@H]4[C@@]5(C)CC[C@H](OC(=O)c6cccnc6)C(C)(C)[C@@H]5CC[C@]43C)[C@@H]12,,>20 µg/mL
COc1c(Cl)cc(C(=CCCNC(=O)C[C@H]2CC[C@]3(C)C4CC[C@@]5(C)C(CC[C@@H]5CC(=O)NCCC=C(c5cc(Cl)c(OC)c(C(=O)O)c5)c5cc(Cl)c(OC)c(C(=O)O)c5)C4CC[C@H]3C2)c2cc(Cl)c(OC)c(C(=O)O)c2)cc1C(=O)O,,>125 µM
COc1ccc(N(C)C(=O)[C@H](Cc2cc(F)cc(F)c2)NC(=O)CN2CCN(S(=O)(=O)c3ccccc3N)CC2=O)cc1,MTT,63.62 µM
COc1c(Cl)cc(C(=CCCCCN[C@@H]2CC[C@]3(C)C4CC[C@@]5(C)C(CC[C@@H]5C(C)CCCC(C)C)C4CC[C@H]3C2)c2cc(Cl)c(OC)c(C(=O)O)c2)cc1C(=O)O,,>150 µM
C=C(C)COCn1c(C(=C)c2ccccc2)c(CC)c(=O)[nH]c1=O,MTT,>100 µM
CCc1c(Sc2cc(C)cc(C)c2)n(Cc2ccncc2)c(=O)[nH]c1=O,MTT,12.5 µg/mL
C=C(c1ccccc1)c1c(CC)c(=O)[nH]c(=O)n1COCC=C(C)C,MTT,66 µM
CCc1c(C(=O)c2ccccc2)n(Cc2ccncc2)c(=O)[nH]c1=O,MTT,>100 µg/mL
Cc1cn([C@H]2C[C@H](N=[N+]=[N-])[C@@H](COP(=O)(Nc3cc(C(=O)Nc4cc(C(=O)Nc5cc(C(=O)NCCC(=N)N)n(C)c5)n(C)c4)n(C)c3)OC(C)C)O2)c(=O)[nH]c1=O,MTT,53 µM
CC1(C)c2nc(C(=O)NCc3ccc(F)cc3)c(O)c(=O)n2CCN1Cc1cocn1,microscopy,>1 µM
CCc1nc([N+](=O)[O-])c(N2CCN(C(=O)c3ccc([N+](=O)[O-])cc3)CC2)n1Cc1ccccc1,,98.23 µg/mL
Cc1cn([C@H]2C[C@H](N=[N+]=[N-])[C@@H](COP(=O)(Nc3cc(C(=O)Nc4cc(C(=O)Nc5cc(C(=O)Nc6cc(C(=O)NCCC(=N)N)n(C)c6)n(C)c5)n(C)c4)n(C)c3)OC3CCCCC3)O2)c(=O)[nH]c1=O,MTT,221 µM
CCc1nc([N+](=O)[O-])c(N2CCN(C(C)=O)CC2)n1Cc1ccccc1,,≥63.1 µg/mL
CCc1c(C(=O)c2cc(C)cc(C)c2)n(Cc2ccc([N+](=O)[O-])cc2)c(=O)[nH]c1=O,MTT,4.63 µg/mL
C#CCOCn1c(C(=C)c2cc(C)cc(C)c2)c(CC)c(=O)[nH]c1=O,MTT,>100 µM
C[C@]12CCC3C(CC[C@H]4C[C@@H](CCC=C(c5cc(Cl)c(O)c(C(=O)O)c5)c5cc(Cl)c(O)c(C(=O)O)c5)CC[C@]34C)C1CC[C@@H]2CCC=C(c1cc(Cl)c(O)c(C(=O)O)c1)c1cc(Cl)c(O)c(C(=O)O)c1,,>125 µM
CCOC(=O)c1[nH]c2ccc(Cl)cc2c1SCC1CCCCC1,microscopy,>10 µM
NC1=CS(=O)(=O)OC12[C@@H](CO)O[C@@H](n1ccc(=O)[nH]c1=O)[C@@H]2O,,>100 µg/mL
COc1c(Cl)cc(C(=CCCCCN(C(=O)C=C(c2cc(Cl)c(OC)c(C(=O)O)c2)c2cc(Cl)c(OC)c(C(=O)O)c2)[C@H]2CC[C@]3(C)C4CC[C@@]5(C)C(CC[C@@H]5C(C)CCCC(C)C)C4CC[C@H]3C2)c2cc(Cl)c(OC)c(C(=O)O)c2)cc1C(=O)O,,33 µM
CCc1c(C(=O)c2cc(C)cc(C)c2)n(Cc2ccc(OC)cc2)c(=O)[nH]c1=O,MTT,2.14 µg/mL
Cc1cn([C@H]2C[C@H](N=[N+]=[N-])[C@@H](CO)O2)c(=O)[nH]c1=O,MTT,42.9 µg/mL
O=C(NCc1ccc(F)cc1)c1nc2n(c(=O)c1O)C(=O)N(Cc1ccccc1)CC2,microscopy,>1 µM
COc1ccc(N(C)C(=O)[C@H](Cc2cc(F)cc(F)c2)NC(=O)CN2CCN(S(=O)(=O)c3cccc([N+](=O)[O-])c3)CC2=O)cc1,MTT,83.87 µM
CCc1nc([N+](=O)[O-])c(N2CCN(C(=O)CSCc3ccc(Cl)cc3)CC2)n1Cc1ccccc1,,7.35 µg/mL
CCc1c(C(=O)c2cc(C)cc(F)c2)n(Cc2ccncc2)c(=O)[nH]c1=O,MTT,51.7 µg/mL
COc1ccc(N(C)C(=O)[C@H](Cc2cc(F)cc(F)c2)NC(=O)CN2CCN(S(=O)(=O)c3ccccc3)CC2=O)cc1,MTT,113.9 µM
CCc1nc([N+](=O)[O-])c(N2CCN(C(=O)OCn3c4ccccc4c4ccccc43)CC2)n1Cc1ccccc1,,17.95 µg/mL
Cc1c(Sc2ccccc2)n(COCCN(C(=O)c2ccccc2)C(=O)c2ccccc2)c(=O)[nH]c1=O,,>1 µM
COc1ccc(N(C)C(=O)[C@H](Cc2cc(F)cc(F)c2)NC(=O)CN2CCN(S(=O)(=O)c3cccc(Cl)c3)CC2=O)cc1,MTT,9.05 µM
Cn1cc(CN2CCn3c(nc(C(=O)NCc4ccc(F)cc4)c(O)c3=O)C2(C)C)nn1,microscopy,>1 µM
CCOC(=O)c1[nH]c2ccc(Cl)cc2c1S(=O)(=O)CCC(F)(F)F,microscopy,>10 µM
O=C(O)CCN(CCN(CC(=O)O)Cc1cnc2c(O)cccc2c1)CC(=O)O,MTT,>50 µM
CO[C@@H]1[C@H](N(C)C(=O)c2ccccc2)C[C@@]2(C)O[C@]1(C)n1c3ccccc3c3c4c(c5c6ccccc6n2c5c31)C(=O)NC4,fluorescence,>5 µM
CCOC(=O)c1[nH]c2ccc(Cl)cc2c1SC1CCCC1,microscopy,>10 µM
Cc1nnc(C(=O)N(C)C2CN(C)CCn3c2nc(C(=O)NCc2ccc(F)cc2)c(O)c3=O)o1,microscopy,>1 µM
CC(=O)OCc1cc(Cn2c(C(=O)c3cc(C)cc(Cl)c3)c(C(C)C)c(=O)[nH]c2=O)cc(C)n1,MTT,28.81 µg/mL
C=C(c1ccccc1)c1c(CC)c(=O)[nH]c(=O)n1COCC#Cc1ccccc1,MTT,28 µM
Cc1c(Sc2ccccc2)n(COCCN(CC#N)CC#N)c(=O)[nH]c1=O,,>1 µM
Cc1ccc(-c2cc(-c3ccc(Cl)cc3)nc(/N=C3\C(=O)N(CN(C)C)c4ccccc43)n2)cc1,MTT,10.1 µM
CCc1nc([N+](=O)[O-])c(N2CCN(C(=O)CCl)CC2)n1Cc1ccccc1,,0.45 µg/mL
CCc1c(C(=O)c2cc(C)cc(C)c2)n(Cc2ccnc(C)c2)c(=O)[nH]c1=O,MTT,14.3 µg/mL
CCOCn1c(Cc2ccccc2)c(C(C)C)c(=O)[nH]c1=O,MTT,>100 µM
CCc1nc([N+](=O)[O-])c(N2CCN(C(=O)CSCc3ccccc3)CC2)n1Cc1ccccc1,,8.14 µg/mL
C=C(c1ccccc1)c1c(CC)c(=O)[nH]c(=O)n1COCC,MTT,>100 µM
Cc1ccc(-c2cc(-c3ccc(Cl)cc3)nc(/N=C3\C(=O)Nc4ccc(Br)cc43)n2)cc1,MTT,10.4 µM
C=C(c1cc(C)cc(C)c1)c1c(CC)c(=O)[nH]c(=O)n1COC/C=C/c1ccccc1,MTT,4 µM
Cc1ccc(-c2cc(-c3ccc(Cl)cc3)nc(/N=C3\C(=O)N(CN4CCOCC4)c4ccc(Cl)cc43)n2)cc1,MTT,3 µM
CCc1c(C(=O)c2cc(C)cc(C)c2)n(Cc2cccnc2)c(=O)[nH]c1=O,MTT,18.7 µg/mL
C=C(c1cccc2ccccc12)c1c(CC)c(=O)[nH]c(=O)n1COCC,MTT,66 µM
Cc1c(Sc2ccccn2)n(COCCSc2ccccc2)c(=O)[nH]c1=O,,>1 µM
C=C(c1cc(C)cc(C)c1)c1c(CC)c(=O)[nH]c(=O)n1COCC=C(C)C,MTT,28 µM
c1ccc(CNCCc2ccc(CN3CCNCCCCCCCNCC3)cc2)nc1,,>100 µg/mL
Cc1cn([C@H]2C=C[C@@H](COP(=O)(Nc3cc(C(=O)Nc4cc(C(=O)Nc5cc(C(=O)Nc6cc(C(=O)NCCC(=N)N)n(C)c6)n(C)c5)n(C)c4)n(C)c3)OC(C)C)O2)c(=O)[nH]c1=O,MTT,182 µM

Again, the opening 4 rows:

SMILES	method	result
CN1Cn2c(nc(C(=O)NCc3ccc(F)cc3)c(O)c2=O)C1(C)C	microscopy	>1 µM
Cc1ccc(-c2cc(-c3ccc(Cl)cc3)nc(/N=C3\C(=O)N(CN4CCCCC4)c4ccccc43)n2)cc1	MTT	1.1 µM
Cc1cn([C@H]2C=C[C@@H](COP(=O)(Nc3cc(C(=O)Nc4cc(C(=O)Nc5cc(C(=O)NCCC#N)n(C)c5)n(C)c4)n(C)c3)OC3CCCCC3)O2)c(=O)[nH]c1=O	MTT	113 µM
COc1ccc(N(C)C(=O)[C@H](Cc2cc(F)cc(F)c2)NC(=O)CN2CCN(S(=O)(=O)c3cccc(C)c3)CC2=O)cc1	MTT	>204 µM

Lines come from different laboratories, so protocols vary. CCn: concentration that lowers growth or viability of the cells by n%.